Data as given in PubChem BioAssay AID624099 (ICCB-Longwood, 2012)

Assay: 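Human genes that papillomavirus E2 requires to repress the HPV18 LCR promoter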 (primary screen)
System: human C33A cervical carcinoma cells (HPV-negative) stably expressing BPV1 E2 and an HPV18 LCR luciferase reporter
Reagents: siRNA pool against human genes, 40 nM
Time to read-out: 72 h
Read-out: 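Per-well luciferase luminescence, z-scored on each plate against the plate mean and SD with control wells left out, then averaged across three replicate plates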
Scale: mean z-score and z-score: higher = stronger reporter signal, weaker E2 silencing
Call rule: 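Mean z ≥ 2 together with z ≥ 2 in two or more of the three replicates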
In all, the deposit lists about 21,000 reagents; shown is an unselected part. 497 of all reagents (2.4%) count as active. 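Higher z means weaker E2 silencing; only reporter increases were scored, and knock-downs that hurt cell survival may mask genuine repressor factors.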 Reagent sequences are not shown.

target | mean z-score | z-score, replicate A | z-score, replicate B | z-score, replicate C | Outcome
SIX5 (GeneID 147912) | 0.68 | 1.05 | 1.04 | -0.04 | inactive
SMIM7 (GeneID 79086) | 1.16 | 1.26 | 1.23 | 1.01 | inactive
N4BP3 (GeneID 23138) | -1.7 | -1.01 | -1.88 | -2.21 | inactive
MAGEF1 (GeneID 64110) | -0.49 | -0.52 | -0.55 | -0.41 | inactive
XK (GeneID 7504) | -0.07 | 0.16 | 0.03 | -0.41 | inactive
TMEM158 (GeneID 25907) | 1.2 | 1.25 | 0.97 | 1.38 | inactive
MORN2 (GeneID 729967) | -1.34 | -1.26 | -1.46 | -1.31 | inactive
TBK1 (GeneID 29110) | -0.03 | 0.17 | 0.03 | -0.28 | inactive
DMRTA1 (GeneID 63951) | -1.27 | -1.64 | -1.56 | -0.59 | inactive
MAP10 (GeneID 54627) | -0.33 | -0.75 | -0.39 | 0.15 | inactive
DZIP1L (GeneID 199221) | -1.41 | -1.37 | -1.5 | -1.35 | inactive
RXFP4 (GeneID 339403) | 0.49 | 0.54 | 0.45 | 0.47 | inactive
LOC400586 (retired record) (GeneID 400586) | -0.64 | -0.58 | -0.92 | -0.43 | inactive
TRIOBP (GeneID 11078) | 0.39 | -0.01 | 0.65 | 0.52 | inactive
SGO1 (GeneID 151648) | -1.87 | -1.78 | -1.98 | -1.85 | inactive
NTRK2 (GeneID 4915) | -0.34 | -0.64 | -0.29 | -0.08 | inactive
FGF5 (GeneID 2250) | -1.08 | -1.2 | -0.96 | -1.08 | inactive
TM4SF20 (GeneID 79853) | 0.13 | 0.38 | 0.4 | -0.39 | inactive
LOC402353 (retired record) (GeneID 402353) | -0.14 | -0.04 | 0.08 | -0.47 | inactive
PITPNM3 (GeneID 83394) | 1.9 | 1.84 | 1.86 | 2 | inactive
LAMA2 (GeneID 3908) | 1 | 1.06 | 1.22 | 0.73 | inactive
BIK (GeneID 638) | 0.16 | 0.57 | -0.08 | 0 | inactive
UCK1 (GeneID 83549) | -0.02 | 0.1 | 0.31 | -0.46 | inactive
LINC02396 (GeneID 283332) | -0.08 | -0.1 | -0.37 | 0.22 | inactive
HEXD (GeneID 284004) | -0.21 | – | -0.16 | -0.26 | inactive
SLC30A6 (GeneID 55676) | -0.13 | 0.29 | -0.31 | -0.35 | inactive
FOXO1 (GeneID 2308) | 0.77 | 1.08 | 0.19 | 1.03 | inactive
PLA2G6 (GeneID 8398) | -0.57 | -0.72 | -0.47 | -0.52 | inactive
FBXO32 (GeneID 114907) | 0.26 | 0.3 | -0.06 | 0.55 | inactive
SLC35D1 (GeneID 23169) | -0.38 | -0.14 | -0.62 | -0.39 | inactive
DUOXA2 (GeneID 405753) | 0.25 | 0 | 0.24 | 0.51 | inactive
LRP5 (GeneID 4041) | -0.97 | -0.82 | -1.02 | -1.06 | inactive
DHRS11 (GeneID 79154) | -0.74 | -1.3 | -0.6 | -0.33 | inactive
CHSY3 (GeneID 337876) | -0.15 | -0.41 | 0.08 | -0.12 | inactive
LOC387871 (retired record) (GeneID 387871) | -0.85 | -0.8 | -0.54 | -1.21 | inactive
VAX1 (GeneID 11023) | -1.38 | -1.33 | -1.5 | -1.32 | inactive
RPSAP47 (GeneID 389672) | -2.4 | -2.54 | -2.18 | -2.48 | inactive
FOSL1 (GeneID 8061) | 2.65 | 3.03 | 2.56 | 2.37 | active
MS4A14 (GeneID 84689) | 1.98 | 1.91 | 1.63 | 2.38 | inactive
CEP78 (GeneID 84131) | -0.57 | -0.57 | -0.7 | -0.45 | inactive
HOOK1 (GeneID 51361) | 1.27 | 1.87 | 1.14 | 0.8 | inactive
TIMM50 (GeneID 92609) | 0.15 | -0.03 | 0.19 | 0.28 | inactive
ABHD12B (GeneID 145447) | -0.32 | -0.42 | -0.36 | -0.17 | inactive
LOC283029 (retired record) (GeneID 283029) | 1.03 | 1.01 | 0.87 | 1.22 | inactive
UCP3 (GeneID 7352) | 0 | 0.4 | -0.01 | -0.4 | inactive
ERCC8 (GeneID 1161) | 0.26 | 0.15 | 0.51 | 0.12 | inactive
MED17 (GeneID 9440) | -1.83 | -1.76 | -1.98 | -1.74 | inactive
KLHL20 (GeneID 27252) | 0.51 | 0.6 | 0.47 | 0.46 | inactive
GAP43 (GeneID 2596) | -0.4 | -0.54 | 0.32 | -0.98 | inactive
DCAF11 (GeneID 80344) | -0.03 | -0.31 | 0.02 | 0.19 | inactive
RAB11FIP4 (GeneID 84440) | 2.38 | 2.82 | 2 | 2.32 | active
LOC388137 (retired record) (GeneID 388137) | -0.66 | -0.75 | -0.48 | -0.74 | inactive
DHX16 (GeneID 8449) | 0.38 | 0.62 | 0.24 | 0.27 | inactive
RPL23AP8 (GeneID 641614) | -3.02 | -3.26 | -2.83 | -2.97 | inactive
TTBK1 (GeneID 84630) | 0.9 | 1.2 | 0.7 | 0.81 | inactive
RASGRF1 (GeneID 5923) | -0.92 | -1 | -0.73 | -1.02 | inactive
GALT (GeneID 2592) | 0.21 | 0.62 | 0 | 0.02 | inactive

Quoted from the entries so far for reference:
target | mean z-score | z-score, replicate A | z-score, replicate B | z-score, replicate C | Outcome
N4BP3 (GeneID 23138) | -1.7 | -1.01 | -1.88 | -2.21 | inactive
MAGEF1 (GeneID 64110) | -0.49 | -0.52 | -0.55 | -0.41 | inactive
XK (GeneID 7504) | -0.07 | 0.16 | 0.03 | -0.41 | inactive
TMEM158 (GeneID 25907) | 1.2 | 1.25 | 0.97 | 1.38 | inactive
